Measurements published in article PMC4011036, “Higher Desolvation Energy Reduces Molecular Recognition in Multi-Drug Resistant HIV-1 Protease” (Biology, 2012).

Experiments:
[1] = system: four MDR protease variants; details: four clinical MDR isolates, enzyme inhibition assays, relative to NL4-3 (WT)
Text: HIV protease Forster Resonance Energy Transfer (FRET) substrate I used in the IC50 determination and substrate interference was purchased from AnaSpec, Inc. (Fremont, CA, USA). The US FDA-approved HIV-1 protease inhibitors were kindly provided by the NIH AIDS Research and Reference Reagent Program (www.aidsreagent.org). The CA/p2 pseudopeptide with a reduced scissile peptide bond [-ψ(CH2NH)-] was synthesized in the Department of Chemistry, Wayne State University. The nine substrate hepta-peptides were purchase from SynBioSci Corporation, Livermore, CA, USA. […] The IC50 determination was described previously. […] The protease concentration was adjusted to a substrate cleavage velocity of 5 Relative Fluorescence Units (RFU)/min in the absence of regular substrate. […] Upon the addition of the HIV-1 protease, the fluorescent signal emitted through the cleavage of the FRET substrate was recorded using SpectraMax M5 (Molecular Devices, Sunnyvale, CA, USA) at an excitation wavelength of 340 nm and an emission wavelength of 490 nm. The average velocity of FRET substrate cleavage in RFU/min was calculated based on fluorescent signal at 30 time point over 30 min. In the control experiment, the average velocity of FRET substrate cleavage was determined in the absence of regular substrates. […]

HIV-1 protease NL4-3 = target: T1, HIV-1 protease NL4-3 (Human immunodeficiency virus type 1 group M subtype B, UniProt P12497, Q495K); assay: HIV-1 protease inhibition (FRET substrate cleavage), NL4-3 (WT); format: biochemical; details: FRET substrate I, 0.1 M sodium acetate, 1.0 M NaCl, 1.0 mM EDTA, 1.0 mM DTT, 10% DMSO, 1 mg/mL BSA, pH 4.7, fluorescence 340/490 nm, read-out: IC50 of HIV-1 protease inhibitors
T1 construct: made in house; host or cells: E. coli (pET21b)

HIV-1 protease MDR 769 = target: T2, HIV-1 protease MDR 769 (Human immunodeficiency virus type 1 group M subtype B, UniProt P12497, A559V/I542V/I550V/I572V/L498I/L551P/L578M/M524V/M534L/Q495K/V570A); assay: HIV-1 protease inhibition (FRET substrate cleavage), MDR 769; format: biochemical; details: FRET substrate I, 0.1 M sodium acetate, 1.0 M NaCl, 1.0 mM EDTA, 1.0 mM DTT, 10% DMSO, 1 mg/mL BSA, pH 4.7, fluorescence 340/490 nm, read-out: IC50 of HIV-1 protease inhibitors
T2 construct: made in house; host or cells: E. coli (pET21b)

HIV-1 protease MDR 807 = target: T3, HIV-1 protease MDR 807 (Human immunodeficiency virus type 1 group M subtype B, UniProt P12497, A559V/G536V/I542T/I550V/I581L/L498I/L551Q/M534I/Q495K/Q549N/R529K/T562A/V565I/V570A); assay: HIV-1 protease inhibition (FRET substrate cleavage), MDR 807; format: biochemical; details: FRET substrate I, 0.1 M sodium acetate, 1.0 M NaCl, 1.0 mM EDTA, 1.0 mM DTT, 10% DMSO, 1 mg/mL BSA, pH 4.7, fluorescence 340/490 nm, read-out: IC50 of HIV-1 protease inhibitors
T3 construct: made in house; host or cells: E. coli (pET21b)

HIV-1 protease MDR 1385 = target: T4, HIV-1 protease MDR 1385 (Human immunodeficiency virus type 1 group M subtype B, UniProt P12497, A559V/I581L/L498F/L551P/L577M/L578M/M524I/M534I/N525D/Q495K/R545K/V570T); assay: HIV-1 protease inhibition (FRET substrate cleavage), MDR 1385; format: biochemical; details: FRET substrate I, 0.1 M sodium acetate, 1.0 M NaCl, 1.0 mM EDTA, 1.0 mM DTT, 10% DMSO, 1 mg/mL BSA, pH 4.7, fluorescence 340/490 nm, read-out: IC50 of HIV-1 protease inhibitors
T4 construct: made in house; host or cells: E. coli (pET21b)

HIV-1 protease MDR 3761 = target: T5, HIV-1 protease MDR 3761 (Human immunodeficiency virus type 1 group M subtype B, UniProt P12497, A559I/G561T/I503V/I552V/I572V/I581L/K508I/L498I/L507I/L551P/L578M/M534I/P567S/Q495K/T500A); assay: HIV-1 protease inhibition (FRET substrate cleavage), MDR 3761; format: biochemical; details: FRET substrate I, 0.1 M sodium acetate, 1.0 M NaCl, 1.0 mM EDTA, 1.0 mM DTT, 10% DMSO, 1 mg/mL BSA, pH 4.7, fluorescence 340/490 nm, read-out: IC50 of HIV-1 protease inhibitors
T5 construct: made in house; host or cells: E. coli (pET21b)

| SMILES | resistance of MDR variants to inhibitors (in words) [1] | IC50 (HIV-1 protease NL4-3) | IC50 (HIV-1 protease MDR 769) | IC50 (HIV-1 protease MDR 807) | IC50 (HIV-1 protease MDR 1385) | IC50 (HIV-1 protease MDR 3761) |
| --- | --- | --- | --- | --- | --- | --- |
| CCC[C@@]1(CCc2ccccc2)CC(O)=C([C@H](CC)c2cccc(NS(=O)(=O)c3ccc(C(F)(F)F)cn3)c2)C(=O)O1 [TPV, tipranavir] | lower relative resistance | – | – | – | – | – |
| Cc1cccc(C)c1OCC(=O)N[C@@H](Cc1ccccc1)[C@@H](O)C[C@H](Cc1ccccc1)NC(=O)[C@H](C(C)C)N1CCCNC1=O [LPV, lopinavir] | – | 0.28 nM | 0.5 nM | 1.2 nM | 2.3 nM | 0.39 nM |
